Here are results for one substance from PMC4140839 (PLoS ONE, 2014).

Holding throughout (test): purified protein
Holding throughout (settings): 10 mM HEPES pH 8.0, 1 mM NiCl2, 100 nM enzyme, 25 °C

The test system of data set [1] is O=[N+]([O-])c1ccc(OP(=O)(O)O)cc1.
Data set [2] relates to Cc1cn([C@H]2C[C@H](O)[C@@H](COP(=O)(O)Oc3ccc([N+](=O)[O-])cc3)O2)c(=O)[nH]c1=O.
Data set [3] has as its system C[N+](C)(C)CCOP(=O)([O-])Oc1ccc([N+](=O)[O-])cc1.

The Km is the substrate concentration at which the rate is half of its maximum. As usually defined, the kcat is the number of substrate molecules converted per active site and unit of time at saturation. Usually kcat/Km stands for the turnover number divided by the Michaelis constant. For “RsASML (Ralstonia pseudosolanacearum GMI1000)”, in data set [1], the Km is 4.29 ± 0.27 mM, the kcat came to 0.0335 s⁻¹ and the kcat/Km turned out to be 7.83 M⁻¹ s⁻¹. Besides, in data set [2], the Km was determined as 2.79 ± 0.22 mM, the kcat was determined as 2.26 s⁻¹ and the kcat/Km was determined as 811 M⁻¹ s⁻¹. In addition, in data set [3], the Km turned out to be 18.55 ± 1.41 mM, the kcat worked out at 2.73 s⁻¹ and the kcat/Km came to 147 M⁻¹ s⁻¹.
